Record: PubChem BioAssay AID1224833 (University of Georgia, 2016)

Test: 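Human genes whose knock-down alters rotavirus replication in monkey cells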 (primary screen)
Cells: monkey MA104 kidney cells
Reagents: siRNA pool against human genes, 50 nM
Duration: 48 h knock-down before infection; read 24 h after infection
Treatment: infection with rotavirus strain RV3 two days after transfection; infectious dose for this stage not given
Measured: 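z-score of rotavirus antigen signal per well, from a fluorescent immunoassay, relative to non-targeting control wells on the same plate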
Reading the numbers: z-score vs non-targeting control: higher = more rotavirus replication than with non-targeting control
Call rule: In these data the active calls have z-score vs non-targeting control at about -1 or lower, or at about 1 or higher
Calls: active = z-score beyond 1 either way; inactive = z-score within 1 of zero
This is one part, drawn at random, of about 12,000 reagents tested. About 5,600 of all reagents (46%) were called active. 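Active calls cover z-scores past 1 in both directions, so they include lowered as well as raised rotavirus replication.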 Entries without a mark were called inactive.

The opening 4 entries, ahead of the listing:
AADACL4
- z-score vs non-targeting control: -1.09 (active)

HADHB
- z-score vs non-targeting control: -1.2 (active)

FSIP2
- z-score vs non-targeting control: -1.64 (active)

IER5
- z-score vs non-targeting control: 0.0594

Main list, from the start:
AADACL4
- z-score vs non-targeting control: -1.09 (active)

HADHB
- z-score vs non-targeting control: -1.2 (active)

FSIP2
- z-score vs non-targeting control: -1.64 (active)

IER5
- z-score vs non-targeting control: 0.0594

TFIP11
- z-score vs non-targeting control: 0.185

LECT2
- z-score vs non-targeting control: 0.749

LCE3E
- z-score vs non-targeting control: 0.448

USP42
- z-score vs non-targeting control: -0.988

RP9
- z-score vs non-targeting control: -1.07 (active)

RPA2
- z-score vs non-targeting control: 1.4 (active)

RYBP
- z-score vs non-targeting control: -0.711

DENND1A
- z-score vs non-targeting control: -0.733

TRMT6
- z-score vs non-targeting control: 0.635

MRNIP
- z-score vs non-targeting control: 1.24 (active)

PIGN
- z-score vs non-targeting control: 1.67 (active)

LRRC8D
- z-score vs non-targeting control: 0.31

OR10AG1
- z-score vs non-targeting control: -1.49 (active)

OR10J5
- z-score vs non-targeting control: -1.72 (active)

THAP6
- z-score vs non-targeting control: -0.598

PCDHA11
- z-score vs non-targeting control: -1.25 (active)

CD164
- z-score vs non-targeting control: -1.94 (active)

VTCN1
- z-score vs non-targeting control: -0.386

TTC27
- z-score vs non-targeting control: -1.28 (active)

ZMAT4
- z-score vs non-targeting control: -0.193

NES
- z-score vs non-targeting control: 0.799

MYO1C
- z-score vs non-targeting control: -0.251

TTC17
- z-score vs non-targeting control: -1.93 (active)

YTHDC2
- z-score vs non-targeting control: -0.19

LAMB1
- z-score vs non-targeting control: -1.84 (active)

FOLR1
- z-score vs non-targeting control: -2.05 (active)

RHNO1
- z-score vs non-targeting control: -0.787

SLC10A2
- z-score vs non-targeting control: -1.32 (active)
